Results of unrelated studies side by side (data: NIAID ChemDB).

Shared fields: whole-cell or culture tests; organism: Aspergillus fumigatus; read-out: MIC50

Neighbouring rows are from separate reports. MIC50, MIC90 and the like: level of inhibition, or share of isolates inhibited. An empty or dashed field is not shown.

compound	strain or isolate	read by	setting	result
Nc1[nH]c(=O)ncc1F	12 strains			>128 µg/mL
C[C@@H](c1ncncc1F)[C@](O)(Cn1cncn1)c1ccc(F)cc1F	28 isolates			0.06 µg/mL
CCC(C)CC(C)CCCCCCCCC(=O)N[C@H]1C[C@@H](O)[C@H](NCCN)NC(=O)[C@@H]2[C@@H](O)CCN2C(=O)[C@H]([C@H](O)CCN)NC(=O)[C@H]([C@H](O)[C@@H](O)c2ccc(O)cc2)NC(=O)[C@@H]2C[C@@H](O)CN2C(=O)[C@H]([C@@H](C)O)NC1=O	256 isolates			0.03 µg/mL
C[C@H]1[C@H](O)[C@@H](C)/C=C/C=C/C=C/C=C/C=C/C=C/C=C/[C@H](O[C@@H]2O[C@H](C)[C@@H](O)[C@H](N)[C@@H]2O)C[C@@H]2O[C@](O)(C[C@@H](O)C[C@@H](O)CC[C@H](O)[C@@H](O)C[C@@H](O)CC(=O)O[C@H]1C)C[C@H](O)[C@H]2C(=O)O	29 isolates			0.5 µg/mL
COc1cc(C2=C(c3ccc(F)cc3F)COC2=O)ccc1OCC(O)(Cn1cncn1)c1ccc(F)cc1F	ATCC 46645	broth dilution		8 µg/mL
C[C@H]1[C@H](O)[C@@H](C)/C=C/C=C/C=C/C=C/C=C/C=C/C=C/[C@H](O[C@@H]2O[C@H](C)[C@@H](O)[C@H](N)[C@@H]2O)C[C@@H]2O[C@](O)(C[C@@H](O)C[C@@H](O)CC[C@H](O)[C@@H](O)C[C@@H](O)CC(=O)O[C@H]1C)C[C@H](O)[C@H]2C(=O)O	25 isolates			0.5 µg/mL
COC(=O)[C@H]1[C@@H]2C[C@@H](O[C@@H]3O[C@H](C)[C@@H](O)[C@H](N)[C@@H]3O)/C=C/C=C/C=C/C=C/C=C/C=C/C=C/[C@H](C)[C@@H](O)[C@H](C)[C@H](C)OC(=O)C[C@H](O)C[C@H](O)[C@@H](O)CC[C@H](O)C[C@H](O)C[C@](O)(C[C@@H]1O)O2	35 isolates			1 µg/mL
C[C@@H](c1ncncc1F)[C@](O)(Cn1cncn1)c1ccc(F)cc1F	150 clinical isolates			0.5 µg/mL
C[C@@H](c1nc(-c2ccc(C#N)cc2)cs1)[C@](O)(Cn1cncn1)c1ccc(F)cc1F	314 isolates			0.5 µg/mL
CC(=O)OCC1C=C(c2ccc(Cl)c(Cl)c2)C(=O)O1	12 isolates			2 µg/mL
OC(Cn1cncn1)(Cn1cncn1)c1ccc(F)cc1F	25 isolates			>128 µg/mL
C[C@@H]1C/C=C/C=C/C=C/C=C/[C@H](OC2O[C@H](C)[C@@H](O)[C@H](N)[C@@H]2O)CC2O[C@](O)(C[C@@H](O)C[C@H]3O[C@@H]3/C=C/C(=O)O1)C[C@H](O)[C@H]2C(=O)O	Species complex			4 µg/mL
CCC(C)n1ncn(-c2ccc(N3CCN(c4ccc(OC[C@H]5CO[C@](Cn6cncn6)(c6ccc(Cl)cc6Cl)O5)cc4)CC3)cc2)c1=O	256 isolates			1 µg/mL
C[C@H]1[C@H](O)[C@@H](C)/C=C/C=C/C=C/C=C/C=C/C=C/C=C/[C@H](O[C@@H]2O[C@H](C)[C@@H](O)[C@H](N)[C@@H]2O)C[C@@H]2O[C@](O)(C[C@@H](O)C[C@@H](O)CC[C@H](O)[C@@H](O)C[C@@H](O)CC(=O)O[C@H]1C)C[C@H](O)[C@H]2C(=O)O	35 isolates			2 µg/mL
C/C=C/CN=C(N)NCCCCCCCN1CCCCCCCCN=C(N)NC1=O				36 µM
CCC(C)CC(C)CCCCCCCCC(=O)N[C@H]1C[C@@H](O)[C@H](NCCN)NC(=O)[C@@H]2[C@@H](O)CCN2C(=O)[C@H]([C@H](O)CCN)NC(=O)[C@H]([C@H](O)[C@@H](O)c2ccc(O)cc2)NC(=O)[C@@H]2C[C@@H](O)CN2C(=O)[C@H]([C@@H](C)O)NC1=O	62 isolates			0.5 µg/mL
O=C1OCC(c2ccccc2)=C1c1ccc(OCC(O)(Cn2cncn2)c2ccc(F)cc2F)cc1	ATCC 46645	broth dilution		4 µg/mL
CCN1CCC(O)(/C=C/c2ccc(Cl)cc2)C(C(=O)/C=C/c2ccc(Cl)cc2)C1	18 strains (amphotericin B-resistant)			5.84 µg/mL
Clc1ccc(COC(Cn2ccnc2)c2ccc(Cl)cc2Cl)c(Cl)c1	25 isolates			4 µg/mL
Nc1ncccc1-c1cc(Cc2ccc(COc3ccccn3)cc2)no1	IFM 51126	broth dilution	90% human serum	2 µg/mL
CCC(C)n1ncn(-c2ccc(N3CCN(c4ccc(OC[C@H]5CO[C@](Cn6cncn6)(c6ccc(Cl)cc6Cl)O5)cc4)CC3)cc2)c1=O	3 clinical isolates			1 µg/mL
C[C@@H](n1cnc2cc(Cl)ccc2c1=O)[C@](O)(Cn1cncn1)c1ccc(F)cc1F	10 clinical isolates			0.06 µg/mL
COc1cc(O)c2c(c1)C(=O)c1c(cc3c(c1O)-c1c(cc(C)c(C(=O)NC(CO)C(=O)O)c1O)[C@H](OC1OC(C)C(O)C(OC4OCC(O)C(O)C4O)C1O)C3O)C2=O	35 isolates			8 µg/mL
C[C@@H]([C@H](N)C(=O)N[C@H](C(=O)O)[C@H]1O[C@@H](n2ccc(=O)[nH]c2=O)[C@H](O)[C@@H]1O)[C@H](O)c1ccc(O)cn1	13 isolates			>64 µg/mL
C[C@H]1[C@H](O)[C@@H](C)/C=C/C=C/C=C/C=C/C=C/C=C/C=C/[C@H](O[C@@H]2O[C@H](C)[C@@H](O)[C@H](N)[C@@H]2O)C[C@@H]2O[C@](O)(C[C@@H](O)C[C@@H](O)CC[C@H](O)[C@@H](O)C[C@@H](O)CC(=O)O[C@H]1C)C[C@H](O)[C@H]2C(=O)O	314 isolates			0.25 µg/mL
C[C@@H](c1nc(-c2ccc(C#N)cc2)cs1)[C@](O)(Cn1cncn1)c1ccc(F)cc1F	256 isolates			0.25 µg/mL
C[C@@H](c1ncncc1F)[C@](O)(Cn1cncn1)c1ccc(F)cc1F				0.25 µg/mL
Nc1[nH]c(=O)ncc1F	17 isolates			16 µg/mL
CC[C@@H]([C@H](C)O)n1ncn(-c2ccc(N3CCN(c4ccc(OC[C@@H]5CO[C@@](Cn6cncn6)(c6ccc(F)cc6F)C5)cc4)CC3)cc2)c1=O	17 isolates			≤0.002 µg/mL
O=Cc1ccc(OCC(O)(Cn2cncn2)c2ccc(F)cc2F)cc1	ATCC 46645	broth dilution		128 µg/mL
CC[C@@H]([C@H](C)O)n1ncn(-c2ccc(N3CCN(c4ccc(OC[C@@H]5CO[C@@](Cn6cncn6)(c6ccc(F)cc6F)C5)cc4)CC3)cc2)c1=O				0.125 µg/mL
CCC(C)n1ncn(-c2ccc(N3CCN(c4ccc(OC[C@H]5CO[C@](Cn6cncn6)(c6ccc(Cl)cc6Cl)O5)cc4)CC3)cc2)c1=O	12 strains			1 µg/mL
C[C@H]1[C@H](O)[C@@H](C)/C=C/C=C/C=C/C=C/C=C/C=C/C=C/[C@H](O[C@@H]2O[C@H](C)[C@@H](O)[C@H](N)[C@@H]2O)C[C@@H]2O[C@](O)(C[C@@H](O)C[C@@H](O)CC[C@H](O)[C@@H](O)C[C@@H](O)CC(=O)O[C@H]1C)C[C@H](O)[C@H]2C(=O)O	17 isolates			1 µg/mL
C[C@@H](c1ncncc1F)[C@](O)(Cn1cncn1)c1ccc(F)cc1F				0.2 µg/mL
O=C(O)Cc1ccc(OCC(O)(Cn2cncn2)c2ccc(F)cc2F)cc1	ATCC 46645	broth dilution		128 µg/mL

Repeating the first 5 entries:

{"compound": "Nc1[nH]c(=O)ncc1F", "strain or isolate": "12 strains", "result": ">128 µg/mL"}
{"compound": "C[C@@H](c1ncncc1F)[C@](O)(Cn1cncn1)c1ccc(F)cc1F", "strain or isolate": "28 isolates", "result": "0.06 µg/mL"}
{"compound": "CCC(C)CC(C)CCCCCCCCC(=O)N[C@H]1C[C@@H](O)[C@H](NCCN)NC(=O)[C@@H]2[C@@H](O)CCN2C(=O)[C@H]([C@H](O)CCN)NC(=O)[C@H]([C@H](O)[C@@H](O)c2ccc(O)cc2)NC(=O)[C@@H]2C[C@@H](O)CN2C(=O)[C@H]([C@@H](C)O)NC1=O", "strain or isolate": "256 isolates", "result": "0.03 µg/mL"}
{"compound": "C[C@H]1[C@H](O)[C@@H](C)/C=C/C=C/C=C/C=C/C=C/C=C/C=C/[C@H](O[C@@H]2O[C@H](C)[C@@H](O)[C@H](N)[C@@H]2O)C[C@@H]2O[C@](O)(C[C@@H](O)C[C@@H](O)CC[C@H](O)[C@@H](O)C[C@@H](O)CC(=O)O[C@H]1C)C[C@H](O)[C@H]2C(=O)O", "strain or isolate": "29 isolates", "result": "0.5 µg/mL"}
{"compound": "COc1cc(C2=C(c3ccc(F)cc3F)COC2=O)ccc1OCC(O)(Cn1cncn1)c1ccc(F)cc1F", "strain or isolate": "ATCC 46645", "read by": "broth dilution", "result": "8 µg/mL"}